Results as given in publication PMC4162614.
Negatives hold for the conditions tested. Protein sequences can lack the tags named with them. The exact form of at least one protein or probe is not confirmed. The comparison behind a weaker result is the experiment's own reference, which may not be listed here.

Molecular target: T1, Rex (Bacillus cereus ATCC 14579) (UniProt Q81IS6)
T1 sequence (looked up): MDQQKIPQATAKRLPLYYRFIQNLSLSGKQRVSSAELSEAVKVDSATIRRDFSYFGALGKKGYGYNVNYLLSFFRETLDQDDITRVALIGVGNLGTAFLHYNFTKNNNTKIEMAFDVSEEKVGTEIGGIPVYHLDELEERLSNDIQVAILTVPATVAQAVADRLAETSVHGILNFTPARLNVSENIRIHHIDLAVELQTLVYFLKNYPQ
Assay: EMSA
Conditions: 10 mM Tris-HCl pH 7.5, 50 mM KCl, 2.5% glycerol, 5 mM MgCl2, 5 mg/L poly(dI-dC), 30 min at 37 C, 6% native PAGE, recombinant protein, probe letters rebuilt from the primers and the genome

Sequence | binding result (increasing Rex, 2 nM DNA, residues 1-209, label: 5' biotin (forward strand)) | binding result (10 mM NADH (binding impaired), 0.6 uM Rex, 2 nM DNA, residues 1-209, label: 5' biotin (forward strand)) | binding result (100 mM NAD+ (no interference), 0.6 uM Rex, 2 nM DNA, residues 1-209, label: 5' biotin (forward strand)) | binding result (NAD+/NADH ratio of 5 (incomplete shift), 0.6 uM Rex, 2 nM DNA, residues 1-209, label: 5' biotin (forward strand)) | binding result (no NADH/NAD+ added, complete shift of 2 nM DNA at 0.6 uM Rex, residues 1-209, label: 5' biotin (forward strand))
CAAGAATCGTTTCTGCACCGTATAATTTCGAAAGCGCGTTTACTTGTAATAAAATCAATGTTTTCACCTCAAATAATTTCTTAACTTTGCCATGTTTATATTTCTCAATCATACTAAAAATAGTGTATAGTTTAAAATAAAGAGAGAATACTTCTTCTCTTTATTATACAAGGAATTTAATGAGTGCTAAACTTCTGTATTTGATTAAAGTATATGAATAAAGATAGGAAGAGAGGAGAGGTCATATGGATCAGCAAAAGATTCCACAAGCCACTGCTAAAAGATTGCCTCTATACTATCGATTTATCCAAAACTTATCTCTTTCTGGTAAGC (double strand) [rex promoter region] | no binding | – | – | – | –
GGATCCAACTAATCCAGTACCGATAATTGCAATTTTTCTTGTATGTCTTTTCATAGCAATCTCTCCTAATTGATCATATAATCTATTTCTTTTGTTCTTTACATTCTTAATTATAGAGGTTCCCACGATAGAAACCATGGATACTTTGCGAAATGTTGAACAAAGTTTTTGTCCTTTTTGTGAATTGTCATATTCCATTTTCGTCATATTTGTTACAACTGGAAAAATATTTATTATGTATTTATTGACATATACAAAAAGAAAACGAGCGAATAAATTCGCTCGTTTTCTTTTTCCTGTTATTCCGCACTTAATTGGCTTTTTAATTGCTGTACAATCATCGGATTAGCAGGT (double strand) [ldhA promoter region] | – | binds more weakly | binds | binds more weakly | binds
